Laboratory results: patent publication EP2742937A1, “Compositions for use in the treatment of bacterial infections” (LIONEX Diagnostics and Therapeutics GmbH, priority 2012, dated 2014)

Test system: L929 cell line
Experiment: MTT cell proliferation assay (in vitro toxicity)
Format: cell-based, mouse
Details: IC50 from MTT assay divided by in vitro MIC (M. tuberculosis H37Rv)

## C/C=C/C/C=C(\C)C(O)CC/C(C)=C/C=C(\C)C(=O)c1c(O)cc([C@H](C)CC/C=C/NC(=O)OC)oc1=O (stereo partly shown) [Corallopyronin]
  In vitro toxicity with L929 cell line SI: 2

## CCCC(C)=CC=C(C)C(=O)c1c(O)cc(C(C)CCC=CNC(=O)OC)oc1=O (stereo not shown) [Myxopyronin A]
  In vitro toxicity with L929 cell line SI: >16
Listed as Myxopyronin
  In vitro toxicity with L929 cell line SI: more than 16
Listed as myxopyronin A
  In vitro toxicity with L929 cell line SI: greater than 16
